Measured values from several laboratories, pooled; numbers as filed in NIAID ChemDB.

Shared fields: whole-cell or culture tests

ECn is the concentration giving n% inhibition of infection, replication or growth. Inhibition is in % at the dose shown (toxicity tests: loss of growth or viability). Zones are inhibition diameters on agar. Blank or dashed fields: not listed here. Two numbers with a dash give a range or band. A number after MIC or MFC names an inhibition level or a share of isolates. Neighbouring rows are from separate reports.

SMILES | organism | strain | setting | dose | cells | method | measure | result
O=S(=O)([O-])c1cc(NS(=O)(=O)c2ccccc2)c2c(S(=O)(=O)[O-])cc(S(=O)(=O)[O-])cc2c1 | Herpes simplex virus |  |  | 50 µg/mL | Human amnion AV3 cells | cytopathic effect | inhibition | 0%
Cc1ccnc(NC(=O)NCCc2ccccc2)n1 | HIV-2 |  |  | 10 µg/mL | MT-4 | RT activity | inhibition | 27%
O=S(=O)(O)c1cc(O)c2c(O)cc(S(=O)(=O)O)cc2c1 | Adenovirus | TYPE 3 |  | 50 µg/mL | Human embryonic lung cells | cytopathic effect | inhibition | 40%
O=C(NCc1ccc(Cl)cc1)c1c[nH]c2ccc(CCCO)cc2c1=O | Rat cytomegalovirus |  |  |  |  | plaque count | EC50 | 0.3 µM
O=S(=O)([O-])c1ccccc1S(=O)(=O)[O-] | Adenovirus | TYPE 3 |  | 10 µg/mL | Human embryonic lung cells | cytopathic effect | inhibition | 0%
O=C(NCCc1ccccc1)Nc1nc(C(F)(F)F)cs1 | HIV-2 |  |  | 100 µg/mL | MT-4 | RT activity | inhibition | 96%
Cc1cc(-c2ccc(N=Nc3c(S(=O)(=O)O)cc4cc(S(=O)(=O)O)cc(N)c4c3O)c(C)c2)ccc1N=Nc1c(S(=O)(=O)O)cc2cc(S(=O)(=O)O)cc(N)c2c1O | Adenovirus | TYPE 3 |  | 5 µg/mL | Human embryonic lung cells | cytopathic effect | inhibition | 0%
Cc1ccc2oc(=S)n(-c3cccc(Cl)c3)c(=S)c2c1 | Mycobacterium kansasii | My 235/80 | 21 d |  |  |  | MIC | 2 µM
C/C=C/C/C=C/CCC(=O)[C@H]1O[C@H]1C(N)=O | Escherichia coli | UB1005/PBR322 |  |  |  |  | MIC | 20 µg/mL
Nc1ccc2c(O)cc(S(=O)(=O)[O-])cc2c1S(=O)(=O)[O-] | Rhinovirus |  |  | 5 µg/mL | Human amnion AV3 cells | cytopathic effect | inhibition | 18%
Nc1nc2c(ncn2COC(CO)CO)c(=O)[nH]1 | Simian varicella-zoster virus |  |  |  | VERO | plaque count | EC50 | 18 µM
O=C(NN=CC1C(c2ccccc2)=Nc2ccccc21)N1c2ccccc2C=Cc2ccccc21 | Aspergillus oryzae | MTCC-3567 |  | 500 µg/mL |  | agar diffusion | zone | 11 mm
Cc1cc2cc(-n3c(C(=O)NCc4ccccc4)c4n(c3=O)CCN(C(=O)c3ccc(Br)c(Cl)c3)C4)ccc2o1 | Hepatitis B virus |  |  |  | HepG2.117 | PCR | EC50 | 0.1–0.5 µM
O=C(NN1C(=O)CSC1C1C(c2ccccc2)=Nc2ccccc21)N1c2ccccc2C=Cc2ccccc21 | Aspergillus oryzae | MTCC-3567 |  | 500 µg/mL |  | agar diffusion | zone | 12 mm
C=CCc1ccc(O)c(OC)c1 | Candida tropicalis | 2442 |  |  |  | turbidity | MIC90 | 480 µg/mL
Nc1cccc(S(=O)(=O)O)c1 | Herpes simplex virus |  |  | 5 µg/mL | Human amnion AV3 cells | cytopathic effect | inhibition | 33%
FC(F)(F)c1ccc(-n2c(=S)oc3ccc(Br)cc3c2=S)cc1 | Mycobacterium kansasii | My 235/80 | 14 d |  |  |  | MIC | 16 µM
O=C(NN=CC1C(c2ccccc2)=Nc2ccc(Cl)cc21)N1c2ccccc2C=Cc2ccccc21 | Aspergillus terreus | MTCC-1782 |  | 1000 µg/mL |  | agar diffusion | zone | 10 mm
O=c1oc2ccc(F)cc2c(=S)n1-c1ccc(Cl)cc1 | Mycobacterium kansasii | 6509/96 | 21 d |  |  |  | MIC | 2 µM
C[C@@H](c1ncncc1F)[C@](O)(Cn1cncn1)c1ccc(F)cc1F | Cryptococcus gattii | CBS 11545 |  |  |  | broth dilution | MIC | 0.25 µg/mL
O=C1[C@@H](Cc2ccccc2)NC(=S)N1Cc1ccccc1 | HIV-2 |  |  | 10 µg/mL | MT-4 | cytopathic effect / XTT | inhibition | 100%
O=S(=O)([O-])c1cc(O)c2ccccc2c1 | Adenovirus | TYPE 3 |  | 50 µg/mL | Human embryonic lung cells | cytopathic effect | inhibition | 0%
CCCCCCCCCCCCOC(=O)[C@]1(O)C[C@@H](O)[C@@H](O)[C@H](OC(=O)/C=C/c2ccc(O)c(O)c2)C1 | Aspergillus ochraceus | CB 108.08 |  |  |  | absorbance | MIC80 | >2900 µM
O=S(=O)([O-])c1ccc(O)c2ccccc12 | Herpes simplex virus |  |  | 50 µg/mL | Human conjunctiva cells | cytopathic effect | inhibition | 0%
O=C(NCCc1ccccc1)Nc1nc2ccc(Cl)cc2s1 | HIV-2 |  |  | 1 µg/mL | MT-4 | RT activity | inhibition | 79%
COc1ccc2oc(=S)n(-c3ccc(Cl)c(Cl)c3)c(=S)c2c1 | Mycobacterium kansasii | 6509/96 | 14 d |  |  |  | MIC | 32 µM
Cn1cc(C(=O)NCc2ccc(Cl)cc2)c(=O)c2cc(CN3CCOCC3)ccc21 | Rat cytomegalovirus |  |  |  | REF | plaque count | EC50 | 0.2 µM
O=C(NCCc1ccccc1)Nc1nc2c(Cl)cccc2s1 | HIV-2 |  |  | 100 µg/mL | MT-4 | RT activity | inhibition | 93%
CN(Cc1ccccc1)C(=O)c1c2n(c(=O)n1-c1ccccc1)CCN(C(=O)c1ccc(Br)c(Cl)c1)C2 | Hepatitis B virus |  |  |  | HepG2.117 | PCR | EC50 | 0.5–5 µM
CCO/N=C/c1ccc(OCCC2CCN(c3ccc(Cl)nn3)CC2)cc1 | Rhinovirus | 181-CV16 (ICAM-1 receptor group 12) |  |  | KB | neutral red | EC50 | 0.014 µM
CO[C@H]1/C=C/O[C@@]2(C)Oc3c(C)c(O)c4c(O)c(c5c(c4c3C2=O)NC2(CCN(CC(C)C)CC2)N=5)=NC(=O)/C(C)=C\C=C\[C@H](C)[C@H](O)[C@@H](C)[C@@H](O)[C@@H](C)[C@H](OC(C)=O)[C@@H]1C | Mycobacterium avium intracellulare | 92 |  |  |  |  | MIC | 0.5 µg/mL
O=C(O)P(=O)(O)O | Cytomegalovirus | AD169 |  | 200 µM | HFF | hybridisation | inhibition | 75.4%
Cc1nc(NC(=O)NCCc2ccccc2)sc1C | HIV-2 |  |  | 100 µg/mL | MT-4 | cytopathic effect / XTT | inhibition | 85%
CCC(CC)O[C@@H]1C=C(C(=O)O)C[C@H](N)[C@H]1NC(C)=O | Influenza A virus | H1N1 A/NWS/33 |  |  | MDCK |  | EC50 | >100 µM
O=C(NCCc1ccccc1)Nc1nc2ccccc2s1 | HIV-2 |  |  | 10 µg/mL | MT-4 | cytopathic effect / XTT | inhibition | 100%
O=C(NCc1ccccc1-n1cncn1)c1c2n(c(=O)n1-c1ccc(OCC(F)(F)F)cc1)CCN(C(=O)c1ccc(Br)c(Cl)c1)C2 | Hepatitis B virus |  |  |  | HepG2.117 | PCR | EC50 | <0.1 µM
CCC(C)n1ncn(-c2ccc(N3CCN(c4ccc(OC[C@H]5CO[C@](Cn6cncn6)(c6ccc(Cl)cc6Cl)O5)cc4)CC3)cc2)c1=O | Cryptococcus gattii | VG IIb |  |  |  | broth dilution | MIC50 | 0.25 µg/mL
O=c1oc2ccc(F)cc2c(=S)n1-c1ccc(Br)cc1 | Mycobacterium kansasii | 6509/96 | 14 d |  |  |  | MIC | 1 µM
Cc1ccc(-n2c(C(=O)NCc3ccccc3)c3n(c2=O)CCN(C(=O)c2ccc(Br)c(Cl)c2)C3)cc1 | Hepatitis B virus |  |  |  | HepG2.117 | PCR | EC50 | 0.1–0.5 µM
O=C(Nc1c(S(=O)(=O)[O-])cc2cc(S(=O)(=O)[O-])cc(O)c2c1O)c1ccccc1 | Herpes simplex virus |  |  | 5 µg/mL | Human amnion AV3 cells | cytopathic effect | inhibition | 5%
C[C@@H](NC(=O)c1c2n(c(=O)n1-c1ccc(OC3CC3)cc1)CCN(C(=O)c1ccc(Br)c(Cl)c1)C2)c1ccc(C#N)cc1F | Hepatitis B virus |  |  |  | HepG2.117 | PCR | EC50 | 0.5–5 µM
CC(=O)N1C(=O)[C@@H](Cc2ccccc2)NC1=S | HIV-2 |  |  | 1 µg/mL | MT-4 | cytopathic effect / XTT | inhibition | 16%

Repeating the final 4 entries:

| SMILES | organism | strain | setting | dose | cells | method | measure | result |
|---|---|---|---|---|---|---|---|---|
| Cc1ccc(-n2c(C(=O)NCc3ccccc3)c3n(c2=O)CCN(C(=O)c2ccc(Br)c(Cl)c2)C3)cc1 | Hepatitis B virus |  |  |  | HepG2.117 | PCR | EC50 | 0.1–0.5 µM |
| O=C(Nc1c(S(=O)(=O)[O-])cc2cc(S(=O)(=O)[O-])cc(O)c2c1O)c1ccccc1 | Herpes simplex virus |  |  | 5 µg/mL | Human amnion AV3 cells | cytopathic effect | inhibition | 5% |
| C[C@@H](NC(=O)c1c2n(c(=O)n1-c1ccc(OC3CC3)cc1)CCN(C(=O)c1ccc(Br)c(Cl)c1)C2)c1ccc(C#N)cc1F | Hepatitis B virus |  |  |  | HepG2.117 | PCR | EC50 | 0.5–5 µM |
| CC(=O)N1C(=O)[C@@H](Cc2ccccc2)NC1=S | HIV-2 |  |  | 1 µg/mL | MT-4 | cytopathic effect / XTT | inhibition | 16% |